Measured values: US20120101098A1, “3,28-DISUBSTITUTED BETULINIC ACID DERIVATIVES AS ANTI-HIV AGENTS” (priority 2009, published 2012)

What was measured:
Assay type in all cases: cell-based
HIV-1IIIB = HIV-1IIIB replication inhibition assay in MT-2 lymphocytes (p24 antigen ELISA); settings: TI = CC50/EC50, MT-2 cells
HIV-1NL4-3 = HIV-1NL4-3 replication inhibition assay in MT-4 lymphocytes (p24 antigen ELISA); settings: TI = CC50/EC50; HIV-1NL4-3, MT-4 cells
Source text: HIV-1NL4-3 Replication Inhibition Assay in MT-4 Lymphocytes. A previously described HIV-1 infectivity assay was used.^28,33 A 96-well microtiter plate was used to set up the HIV-1NL4-3 replication screening assay. NL4-3 variants at a multiplicity of infection (MOI) of 0.01 were used to infect MT4 cells. Culture supernatants were collected on day 4 post-infection for the p24 antigen capture using an ELISA kit from ZeptoMetrix Corporation (Buffalo, N.Y.).

HIV-1 = assay: Example 2 anti-HIV bioassay of C-28 ethylene glycol bevirimat analogs; settings: Example 2 compounds (Scheme B)

SMILES | TI (HIV-1IIIB) | TI (HIV-1NL4-3) | TI (HIV-1)
C=C(CBr)[C@@H]1CC[C@]2(C(=O)NCCCCCCCC(=O)O)CC[C@]3(C)[C@H](CC[C@@H]4[C@@]5(C)CC[C@H](O)C(C)(C)[C@@H]5CC[C@]43C)[C@@H]12 [Compound 25, N-[3β-Hydroxy-30-bromo-lup-20(29)-en-28-oyl]-8-aminooctanoic acid] | 16.1 | – | –
C=C(CO)[C@@H]1CC[C@]2(C(=O)NCCCCCCCC(=O)O)CC[C@]3(C)[C@H](CC[C@@H]4[C@@]5(C)CC[C@H](O)C(C)(C)[C@@H]5CC[C@]43C)[C@@H]12 [Compound 29, N-[3β,30-Dihydroxy-lup-20(29)-en-28-oyl]-8-aminooctanoic acid] | 2.8 | – | –
C=C(C)[C@@H]1CC[C@]2(C(=O)N3CCC(CCCC(=O)NCCN4CCOCC4)CC3)CC[C@]3(C)[C@H](CC[C@@H]4[C@@]5(C)CC[C@H](OC(=O)CC(C)(C)C(=O)O)C(C)(C)[C@@H]5CC[C@]43C)[C@@H]12 [Compound 47, N′-[N-[3β-O-(3′,3′-Dimethylsuccinyl)-lup-20(29)-en-28-oyl]-4-piperidine-butanoyl]-2-aminoethylmorpholine] | 2,473 | 283.9 | –
C=C(C)[C@@H]1CC[C@]2(C(=O)N3CCC(CCCC(=O)O)CC3)CC[C@]3(C)[C@H](CC[C@@H]4[C@@]5(C)CC[C@H](OC(=O)CCC(C)(C)C(=O)O)C(C)(C)[C@@H]5CC[C@]43C)[C@@H]12 [Compound 40, N-[3β-O-(4′,4′-Dimethylglutaryl)-lup-20(29)-en-28-oyl]-4-piperidine butyric acid] | 145 | – | –
C=C(C)[C@@H]1CC[C@]2(C(=O)NCCCCCCCC(=O)O)CC[C@]3(C)[C@H](CC[C@@H]4[C@@]5(C)CC[C@H](O)C(C)(C)[C@@H]5CC[C@]43C)[C@@H]12 [Compound 23, N-[3β-Hydroxy-lup-20(29)-en-28-oyl]-8-aminooctanoic acid] | 10.1 | – | –
C=C(C)[C@@H]1CC[C@]2(C(=O)N3CCC(CCCC(=O)N4CCOCC4)CC3)CC[C@]3(C)[C@H](CC[C@@H]4[C@@]5(C)CC[C@H](OC(=O)CC(C)(C)C(=O)O)C(C)(C)[C@@H]5CC[C@]43C)[C@@H]12 [Compound 46, N′-[N-[3β-O-(3′,3′-Dimethylsuccinyl)-lup-20(29)-en-28-oyl]-4-piperidine-butanoyl]-morpholine] | 1,748 | 121.4 | –
C=C(COCCN1CCOCC1)[C@@H]1CC[C@]2(C(=O)NCCCCCCCC(=O)NC)CC[C@]3(C)[C@H](CC[C@@H]4[C@@]5(C)CC[C@H](O)C(C)(C)[C@@H]5CC[C@]43C)[C@@H]12 [Compound 21] | 250 | 250 and >138 | 261.7
C=C(C)[C@@H]1CC[C@]2(C(=O)N3CCC(CCCC(=O)O)CC3)CC[C@]3(C)[C@H](CC[C@@H]4[C@@]5(C)CC[C@H](O)C(C)(C)[C@@H]5CC[C@]43C)[C@@H]12 [Compound 38, N-[3β-Hydroxy-lup-20(29)-en-28-oyl]-4-piperidine butyric acid] | 1.9 | – | –
C=C(COCCN1CCOCC1)[C@@H]1CC[C@]2(C(=O)NCCCCCCCC(=O)O)CC[C@]3(C)[C@H](CC[C@@H]4[C@@]5(C)CC[C@H](O)C(C)(C)[C@@H]5CC[C@]43C)[C@@H]12 [Compound 20, N-[3β-Hydroxy-30-(2′-morpholinoethoxy)-lup-20(29)-en-28-oyl]-8-aminooctanoic acid] | 13.8 | – | 72.9
C=C(C)[C@@H]1CC[C@]2(C(=O)N3CCC(CCCC(=O)O)CC3)CC[C@]3(C)[C@H](CC[C@@H]4[C@@]5(C)CC[C@H](OC(=O)CC(C)(C)C(=O)O)C(C)(C)[C@@H]5CC[C@]43C)[C@@H]12 [Compound 39, N-[3β-O-(3′,3′-Dimethylsuccinyl)-lup-20(29)-en-28-oyl]-4-piperidine butyric acid] | 1.4×10^3 and 1,389 | – | –
C=C(C)[C@@H]1CC[C@]2(C(=O)N3CCC(CCCC(=O)NC)CC3)CC[C@]3(C)[C@H](CC[C@@H]4[C@@]5(C)CC[C@H](OC(=O)CC(C)(C)C(=O)O)C(C)(C)[C@@H]5CC[C@]43C)[C@@H]12 [Compound 45] | 497 | >41.7 | –
C=C(COCCN1CCOCC1)[C@@H]1CC[C@]2(C(=O)N[C@@H](CC(C)C)C(=O)O)CC[C@]3(C)[C@H](CC[C@@H]4[C@@]5(C)CC[C@H](O)C(C)(C)[C@@H]5CC[C@]43C)[C@@H]12 [Compound 19, N-[3β-Hydroxy-30-(2′-morpholinoethoxy)-lup-20(29)-en-28-oyl]-leucine] | 1.4 | – | –
C=C(C)[C@@H]1CC[C@]2(C(=O)N3CCC(CCCC(=O)NCCCN4CCOCC4)CC3)CC[C@]3(C)[C@H](CC[C@@H]4[C@@]5(C)CC[C@H](OC(=O)CC(C)(C)C(=O)O)C(C)(C)[C@@H]5CC[C@]43C)[C@@H]12 [Compound 48, N′-[N-[3β-O-(3′,3′-Dimethylsuccinyl)-lup-20(29)-en-28-oyl]-4-piperidine-butanoyl]-3-aminopropylmorpholine] | 3,087 | 245.7 | –
C=C(C)[C@@H]1CC[C@]2(C(=O)O)CC[C@]3(C)[C@H](CC[C@@H]4[C@@]5(C)CC[C@H](OC(=O)CC(C)(C)C(=O)O)C(C)(C)[C@@H]5CC[C@]43C)[C@@H]12 [Compound 2, bevirimat, reference compound] | > 3.6×10^3 and 3,636 | – | –
C=C(COCCc1ccc(Cl)cc1)[C@@H]1CC[C@]2(C(=O)N[C@@H](CC(C)C)C(=O)O)CC[C@]3(C)[C@H](CC[C@@H]4[C@@]5(C)CC[C@H](O)C(C)(C)[C@@H]5CC[C@]43C)[C@@H]12 [Compound 17, N-[3β-Hydroxy-30-(4′-chlorophenethoxy)-lup-20(29)-en-28-oyl]-leucine] | 1.2 | – | –
C=C(CBr)[C@@H]1CC[C@]2(C(=O)NC(CC(C)C)C(=O)O)CC[C@]3(C)[C@H](CC[C@@H]4[C@@]5(C)CC[C@H](OC(=O)CC(C)(C)C(=O)O)C(C)(C)[C@@H]5CC[C@]43C)[C@@H]12 (stereo partly drawn) [Compound 30, N-[3β-O-(3′,3′-Dimethylsuccinyl)-30-bromo-lup-20(29)-en-28-oyl]-leucine] | 3.0×10^3 and 3,022 | – | –
C=C(C)[C@@H]1CC[C@]2(C(=O)NCCCCCCCNC(C)=O)CC[C@]3(C)[C@H](CC[C@@H]4[C@@]5(C)CC[C@H](O)C(C)(C)[C@@H]5CC[C@]43C)[C@@H]12 [Compound 4, A43-D, reference compound] | – | > 100 and >150 | –
C=C(C)[C@@H]1CC[C@]2(C(=O)N[C@@H](CC(C)C)C(=O)O)CC[C@]3(C)[C@H](CC[C@@H]4[C@@]5(C)CC[C@H](NC(=O)CC(C)(C)C(=O)O)C(C)(C)[C@@H]5CC[C@]43C)[C@@H]12 [Compound 36, N′-[3β-(3′,3′-Dimethylsuccinyl)-lup-20(29)-en-28-oyl]-leucine] | 2.7 | – | –
C=C(C)[C@@H]1CC[C@]2(C(=O)NCCCCCCCC(=O)N[C@@H](CC(C)C)[C@H](O)CC(=O)O)CC[C@]3(C)[C@H](CC[C@@H]4[C@@]5(C)CC[C@H](O)C(C)(C)[C@@H]5CC[C@]43C)[C@@H]12 [Compound 3b, IC9564, reference compound] | – | >112.4 | –

Several values for one entry are separate records, joined by “and”; a condition that tells them apart may be missing. Identical values can stand only once.
